The target in one experiment is SARS-CoV-2 M^pro (Severe acute respiratory syndrome coronavirus 2, UniProt P0DTD1). The settings on record: read-out: M^pro IC50; cited from earlier work.
A further experiment deals with WT M^pro (Severe acute respiratory syndrome coronavirus 2, UniProt P0DTD1). The experiment is classed as biochemical.

In general, IC50 refers to the concentration that inhibits the measured activity by half. Turning to Thimerosal, the IC50 on SARS-CoV-2 M^pro was 600 nM. Besides, at WT M^pro, the “relative efficacy of M^pro inhibition (in words)” value is reported as “lowest activity tier”.

(Values after article PMC8686763, “Pre-Steady-State Kinetics of the SARS-CoV-2 Main Protease as a Powerful Tool for Antiviral Drug Discovery” (Frontiers in Pharmacology, 2021).)
